Columns and labels:
Assay in all cases: cell-based or functional assay
[1] = target: HIV-1 envelope glycoprotein (gp120) of virus 92US712 (HIV-1)
[2] = target: HIV-1 envelope glycoprotein (gp120) of virus VS001 (HIV-1)
[3] = target: HIV-1 envelope glycoprotein (gp120) of virus 92US727 (HIV-1)
[4] = target: HIV-1 envelope glycoprotein (gp120) of virus 7141 (HIV-1)

Binder | Neutralization IC50 [1] | Neutralization IC50 [2] | Neutralization IC50 [3] | Neutralization IC50 [4]
2.3.14-1 (antibody, human IgG1, kappa) heavy: QVHLSQSGAAVTKPGASVRVSCEASGYNIRDYFIHWWRQAPGQGLQWVGWINPKTGQPNNPRQFQGRVSLTRHASWDFDTFSFYMDLKAVRSDDTAIYFCARQRSDYWDFDVWGSGTQVTVSSASTKGPSVFPLAPSSKSTSGGTAALGCLVKDYFPEPVTVSWNSGALTSGVHTFPAVLQSSGLYSLSSVVTVPSSSLGTQTYICNVNHKPSNTKVDKKVEPKSCDKTHTCPPCPAPELLAGPDVFLFPPKPKDTLMISRTPEVTCVVVDVSHEDPEVKFNWYVDGVEVHNAKTKPREEQYNSTYRVVSVLTVLHQDWLNGKEYKCKVSNKALPLPEEKTISKAKGQPREPQVYTLPPSREEMTKNQVSLTCLVKGFYPSDIAVEWESNGQPENNYKTTPPVLDSDGSFFLYSKLTVDKSRWQQGNVFSCSVLHEALHSHYTQKSLSLSPGK light: not shown | 0.11 µg/mL | 0.21 µg/mL | 35.3 µg/mL | 5.23 µg/mL
2.2.19-1 (antibody, human IgG1, kappa) heavy: QVHLSQSGAAVTKPGASVRVSCEASGYKIRDHFIHWWRQAPGQGLQWVGWINPKTGQPNNPRQFQGRVSLTRHASWDFDTFSFYMDLKAVRSDDTAIYFCARQRSDYWDFDVWGSGTQVTVSSASTKGPSVFPLAPSSKSTSGGTAALGCLVKDYFPEPVTVSWNSGALTSGVHTFPAVLQSSGLYSLSSVVTVPSSSLGTQTYICNVNHKPSNTKVDKKVEPKSCDKTHTCPPCPAPELLAGPDVFLFPPKPKDTLMISRTPEVTCVVVDVSHEDPEVKFNWYVDGVEVHNAKTKPREEQYNSTYRVVSVLTVLHQDWLNGKEYKCKVSNKALPLPEEKTISKAKGQPREPQVYTLPPSREEMTKNQVSLTCLVKGFYPSDIAVEWESNGQPENNYKTTPPVLDSDGSFFLYSKLTVDKSRWQQGNVFSCSVLHEALHSHYTQKSLSLSPGK light: not shown | 0.06 µg/mL | 1.04 µg/mL | > 50 µg/mL | 4.83 µg/mL
2.3.16-1 (antibody, human IgG1, kappa) heavy: QVHLSQSGAAVTKPGASVRVSCEASGYNIRDYFIHWWRQAPGQGLQWVGWINPKTGQPNNPRQFQGRVSLTRHASWDFDTFSFYMDLKAVRSDDTAIYFCARQRSDYWDFDVWGSGTQVTVSSASTKGPSVFPLAPSSKSTSGGTAALGCLVKDYFPEPVTVSWNSGALTSGVHTFPAVLQSSGLYSLSSVVTVPSSSLGTQTYICNVNHKPSNTKVDKKVEPKSCDKTHTCPPCPAPELLAGPDVFLFPPKPKDTLMISRTPEVTCVVVDVSHEDPEVKFNWYVDGVEVHNAKTKPREEQYNSTYRVVSVLTVLHQDWLNGKEYKCKVSNKALPLPEEKTISKAKGQPREPQVYTLPPSREEMTKNQVSLTCLVKGFYPSDIAVEWESNGQPENNYKTTPPVLDSDGSFFLYSKLTVDKSRWQQGNVFSCSVLHEALHSHYTQKSLSLSPGK light: not shown | 0.09 µg/mL | 0.72 µg/mL | > 50 µg/mL | 10.2 µg/mL
2.2.16-1 (antibody, human IgG1, kappa) heavy: QVHLSQSGAAVTKPGASVRVSCEASGYKIRDHFIHWWRQAPGQGLQWVGWINPKTGQPNNPRQFQGRVSLTRHASWDFDTFSFYMDLKAVRSDDTAIYFCARQRSDYWDFDVWGSGTQVTVSSASTKGPSVFPLAPSSKSTSGGTAALGCLVKDYFPEPVTVSWNSGALTSGVHTFPAVLQSSGLYSLSSVVTVPSSSLGTQTYICNVNHKPSNTKVDKKVEPKSCDKTHTCPPCPAPELLAGPDVFLFPPKPKDTLMISRTPEVTCVVVDVSHEDPEVKFNWYVDGVEVHNAKTKPREEQYNSTYRVVSVLTVLHQDWLNGKEYKCKVSNKALPLPEEKTISKAKGQPREPQVYTLPPSREEMTKNQVSLTCLVKGFYPSDIAVEWESNGQPENNYKTTPPVLDSDGSFFLYSKLTVDKSRWQQGNVFSCSVLHEALHSHYTQKSLSLSPGK light: not shown | 0.05 µg/mL | 0.78 µg/mL | > 50 µg/mL | 3.38 µg/mL
2.2.2-1 (antibody, human IgG1, kappa) heavy: QVHLSQSGAAVTKPGASVRVSCEASGYKIRDHFIHWWRQAPGQGLQWVGWINPKTGQPNNPRQFQGRVSLTRHASWDFDTFSFYMDLKAVRSDDTAIYFCARQRSDYWDFDVWGSGTQVTVSSASTKGPSVFPLAPSSKSTSGGTAALGCLVKDYFPEPVTVSWNSGALTSGVHTFPAVLQSSGLYSLSSVVTVPSSSLGTQTYICNVNHKPSNTKVDKKVEPKSCDKTHTCPPCPAPELLAGPDVFLFPPKPKDTLMISRTPEVTCVVVDVSHEDPEVKFNWYVDGVEVHNAKTKPREEQYNSTYRVVSVLTVLHQDWLNGKEYKCKVSNKALPLPEEKTISKAKGQPREPQVYTLPPSREEMTKNQVSLTCLVKGFYPSDIAVEWESNGQPENNYKTTPPVLDSDGSFFLYSKLTVDKSRWQQGNVFSCSVLHEALHSHYTQKSLSLSPGK light: not shown | 0.04 µg/mL | 0.44 µg/mL | > 50 µg/mL | 2.06 µg/mL
2.3.19-1 (antibody, human IgG1, kappa) heavy: QVHLSQSGAAVTKPGASVRVSCEASGYNIRDYFIHWWRQAPGQGLQWVGWINPKTGQPNNPRQFQGRVSLTRHASWDFDTFSFYMDLKAVRSDDTAIYFCARQRSDYWDFDVWGSGTQVTVSSASTKGPSVFPLAPSSKSTSGGTAALGCLVKDYFPEPVTVSWNSGALTSGVHTFPAVLQSSGLYSLSSVVTVPSSSLGTQTYICNVNHKPSNTKVDKKVEPKSCDKTHTCPPCPAPELLAGPDVFLFPPKPKDTLMISRTPEVTCVVVDVSHEDPEVKFNWYVDGVEVHNAKTKPREEQYNSTYRVVSVLTVLHQDWLNGKEYKCKVSNKALPLPEEKTISKAKGQPREPQVYTLPPSREEMTKNQVSLTCLVKGFYPSDIAVEWESNGQPENNYKTTPPVLDSDGSFFLYSKLTVDKSRWQQGNVFSCSVLHEALHSHYTQKSLSLSPGK light: not shown | 0.09 µg/mL | 0.48 µg/mL | > 50 µg/mL | 12 µg/mL
2.2.5-1 (antibody, human IgG1, kappa) heavy: QVHLSQSGAAVTKPGASVRVSCEASGYKIRDHFIHWWRQAPGQGLQWVGWINPKTGQPNNPRQFQGRVSLTRHASWDFDTFSFYMDLKAVRSDDTAIYFCARQRSDYWDFDVWGSGTQVTVSSASTKGPSVFPLAPSSKSTSGGTAALGCLVKDYFPEPVTVSWNSGALTSGVHTFPAVLQSSGLYSLSSVVTVPSSSLGTQTYICNVNHKPSNTKVDKKVEPKSCDKTHTCPPCPAPELLAGPDVFLFPPKPKDTLMISRTPEVTCVVVDVSHEDPEVKFNWYVDGVEVHNAKTKPREEQYNSTYRVVSVLTVLHQDWLNGKEYKCKVSNKALPLPEEKTISKAKGQPREPQVYTLPPSREEMTKNQVSLTCLVKGFYPSDIAVEWESNGQPENNYKTTPPVLDSDGSFFLYSKLTVDKSRWQQGNVFSCSVLHEALHSHYTQKSLSLSPGK light: not shown | 0.05 µg/mL | 0.13 µg/mL | > 50 µg/mL | 2.34 µg/mL
2.2.20-1 (antibody, human IgG1, kappa) heavy: QVHLSQSGAAVTKPGASVRVSCEASGYKIRDHFIHWWRQAPGQGLQWVGWINPKTGQPNNPRQFQGRVSLTRHASWDFDTFSFYMDLKAVRSDDTAIYFCARQRSDYWDFDVWGSGTQVTVSSASTKGPSVFPLAPSSKSTSGGTAALGCLVKDYFPEPVTVSWNSGALTSGVHTFPAVLQSSGLYSLSSVVTVPSSSLGTQTYICNVNHKPSNTKVDKKVEPKSCDKTHTCPPCPAPELLAGPDVFLFPPKPKDTLMISRTPEVTCVVVDVSHEDPEVKFNWYVDGVEVHNAKTKPREEQYNSTYRVVSVLTVLHQDWLNGKEYKCKVSNKALPLPEEKTISKAKGQPREPQVYTLPPSREEMTKNQVSLTCLVKGFYPSDIAVEWESNGQPENNYKTTPPVLDSDGSFFLYSKLTVDKSRWQQGNVFSCSVLHEALHSHYTQKSLSLSPGK light: not shown | 0.05 µg/mL | 1.25 µg/mL | > 50 µg/mL | 4.01 µg/mL
2.3.5-1 (antibody, human IgG1, kappa) heavy: QVHLSQSGAAVTKPGASVRVSCEASGYNIRDYFIHWWRQAPGQGLQWVGWINPKTGQPNNPRQFQGRVSLTRHASWDFDTFSFYMDLKAVRSDDTAIYFCARQRSDYWDFDVWGSGTQVTVSSASTKGPSVFPLAPSSKSTSGGTAALGCLVKDYFPEPVTVSWNSGALTSGVHTFPAVLQSSGLYSLSSVVTVPSSSLGTQTYICNVNHKPSNTKVDKKVEPKSCDKTHTCPPCPAPELLAGPDVFLFPPKPKDTLMISRTPEVTCVVVDVSHEDPEVKFNWYVDGVEVHNAKTKPREEQYNSTYRVVSVLTVLHQDWLNGKEYKCKVSNKALPLPEEKTISKAKGQPREPQVYTLPPSREEMTKNQVSLTCLVKGFYPSDIAVEWESNGQPENNYKTTPPVLDSDGSFFLYSKLTVDKSRWQQGNVFSCSVLHEALHSHYTQKSLSLSPGK light: not shown | 0.05 µg/mL | 0.19 µg/mL | > 50 µg/mL | 3.52 µg/mL
2.3.2-1 (antibody, human IgG1, kappa) heavy: QVHLSQSGAAVTKPGASVRVSCEASGYNIRDYFIHWWRQAPGQGLQWVGWINPKTGQPNNPRQFQGRVSLTRHASWDFDTFSFYMDLKAVRSDDTAIYFCARQRSDYWDFDVWGSGTQVTVSSASTKGPSVFPLAPSSKSTSGGTAALGCLVKDYFPEPVTVSWNSGALTSGVHTFPAVLQSSGLYSLSSVVTVPSSSLGTQTYICNVNHKPSNTKVDKKVEPKSCDKTHTCPPCPAPELLAGPDVFLFPPKPKDTLMISRTPEVTCVVVDVSHEDPEVKFNWYVDGVEVHNAKTKPREEQYNSTYRVVSVLTVLHQDWLNGKEYKCKVSNKALPLPEEKTISKAKGQPREPQVYTLPPSREEMTKNQVSLTCLVKGFYPSDIAVEWESNGQPENNYKTTPPVLDSDGSFFLYSKLTVDKSRWQQGNVFSCSVLHEALHSHYTQKSLSLSPGK light: not shown | 0.1 µg/mL | 0.88 µg/mL | > 50 µg/mL | 14.6 µg/mL
